Some entries repeat one wording, which the source may state once for all of them.

The source of these data is US20250276924A1, “CHEMICAL AND BIOLOGICAL DEGRADATION OF ETHER PER- AND POLYFLUOROALKYL SUBSTANCES” (The Regents of the University of California, priority 2024, published 2025).

Series [1] concerns activated sludge community. The series can be described thus: Aerobic biotransformation and defluorination of ether PFAS in activated sludge batch reactors. To be noted: for defluorination: incubation ≤28 days, result in words.
Series [2] deals with activated sludge community. The experiment in a line: Aerobic biological post-treatment of UV/sulfite effluent with activated sludge. To be noted: result in words.

For the molecule `CC(OC(F)(F)F)C(=O)O` (stereo not shown) [E4, 2-(trifluoromethoxy)propanoic acid], in series [1] (aerobic incubation), the parent compound removal was 39.3%. The defluorination result in series [1] is reported as “defluorination was observed”.

With `O=C(O)CCOC(F)(F)F` [E5, 3-(trifluoromethoxy)propanoic acid], the defluorination entry in series [1] is “defluorination was observed”.

Regarding `O=C(O)COCC(F)(F)F` [E6, 2-(2,2,2-trifluoroethoxy)acetic acid], the defluorination entry in series [1] was “not”.

In the case of `O=C(O)CC(F)(F)F` [TP127, 3,3,3-trifluoropropanoic acid], the “biotransformation of chemical treatment products” value was “completely defluorinated” in series [2] and “completely destroyed” in series [2] (listed as trifluoropropionate).

As for `O=C(O)C(=O)C(F)(F)F` [TP140, Trifluoropyruvate], in series [2], the “biotransformation of chemical treatment products” value is “nondefluorinating biotransformation”.
